The source of these data is patent publication US20110308790A1, “IN SITU METHANOGENESIS MODELING AND RISK ANALYSIS” (CONOCOPHILLIPS COMPANY, priority 2010, published 2011).

This data set deals with microbial populations derived from the Cook Inlet subsurface waters. The data set is described as follows: microbial removal of individual volatile fatty acids (VFAs). Particulars: microbial populations from Cook Inlet wells, within a few months. In kind it is cell-based.

As for `CC(=O)O` [acetate], the “conversion/degradation of VFA to CH4” value is listed as “stoichiometric conversion”.

On to `CCC(=O)O` [propionate], for which the “conversion/degradation of VFA to CH4” value is “not degraded in any of the samples”.
